Results of unrelated studies side by side (data: NIAID ChemDB).

Shared fields: tests in culture; agent: HIV-1; cells: CEM; measure: fold resistance

Fold resistance has wild type as its base. Neighbouring rows are from separate reports.

SMILES,strain or isolate,changes,method,result
Cc1cn([C@@H]2O[C@H](CO[Si](C)(C)C(C)(C)C)C3(OS(=O)(=O)C=C3N)[C@H]2O[Si](C)(C)C(C)(C)C)c(=O)n(C)c1=O,TIBO-1(RT-L100I),RT-L100I,syncytia,1.75
Cc1occc1C(=S)Nc1ccc(Cl)c(/C=N/OC(C)(C)C)c1,IIIB,RT-E138K,cytopathic effect,3.13
Nc1nc2c(ncn2[C@H]2CC[C@@H](CO)O2)c(=O)[nH]1,IIIB TSAO-T(RT-E138K),RT-E138K,syncytia,3.5
CCOCn1c(Cc2cc(C)cc(C)c2)c(CC)c(=O)[nH]c1=O,IIIB E-EBU(RT-Y181C),RT-Y181C,syncytia,367
Fc1cccc(F)c1C1OCc2nc3ccccc3n21,Pyridinone-resistant (RT Y181C),RT-Y181C,cytopathic effect / MTT,≥3.64
Nc1ncnc2c1ncn2CCOCP(=O)(O)O,IIIB-Nevirapine(1.0)(RT-Y181C),RT-Y181C,syncytia,1.86
CCNc1cccnc1N1CCN(C(=O)c2cc3cc(OC)ccc3[nH]2)CC1,IIIB E-EBU(RT-Y181C),RT-Y181C,syncytia,450
CC[C@H]1C(=O)Nc2ccc(F)cc2N1C(=O)OC(C)C,Y-1 (RT-K103N),RT-K103N,cytopathic effect,51
CC(C)=CCN1Cc2cc(Cl)cc3[nH]c(=S)n(c23)C[C@@H]1C,IIIB BHAP(RT-L100I),RT-L100I,syncytia,13.5
CC(C)Nc1cccnc1N1CCN(C(=O)c2cc3ccccc3[nH]2)CC1,Pyr/BHAP(RT-Y181I),RT-Y181I,syncytia,165
CCOCn1c(Sc2ccccc2)c(CC)c(=O)[nH]c1=O,IIIB TIBO R82913-resistant (RT K103N),RT-K103N,syncytia,126
Cc1cn([C@@H]2O[C@H](CO[Si](C)(C)C(C)(C)C)C3(OS(=O)(=O)C=C3N)[C@H]2O[Si](C)(C)C(C)(C)C)c(=O)n(C)c1=O,IIIB-TIBO(0.5)(RT-L100I),RT-L100I,syncytia,1.33
c1ccc(C2OCc3nc4ccccc4n32)cc1,Nevirapine-resistant (RT V106A),RT-V106A,cytopathic effect / MTT,>2
CCc1cc(NCc2nc3c(Cl)ccc(Cl)c3o2)c(=O)[nH]c1C,IIIB NEV(RT-V106A),RT-V106A,syncytia,11.4
O=c1[nH]cnc2c1ncn2[C@H]1CC[C@@H](CO)O1,IIIB nevirapine-resistant (RT Y181C),RT-Y181C,syncytia,5
Cc1cn([C@H]2C[C@H](N=[N+]=[N-])[C@@H](CO)O2)c(=O)[nH]c1=O,C-1 (RT-K101E),RT-K101E,cytopathic effect,1
C=C(C)OC(=O)N1c2cc(Cl)ccc2NC(=S)C1(C)C,Pyr/BHAP(RT-Y181I),RT-Y181I,syncytia,379
CC(C)=CCOc1cc(NC(=S)c2ccsc2C)ccc1Cl,IIIB,RT-K103N,cytopathic effect,6.67
Cc1cn([C@@H]2O[C@H](CO[Si](C)(C)C(C)(C)C)[C@@]3(OS(=O)(=O)C=C3N)[C@H]2O[Si](C)(C)C(C)(C)C)c(=O)[nH]c1=O,IIIB nevirapine-resistant (RT Y181C),RT-Y181C,syncytia,83.3
Cc1ccnc2c1NC(=O)c1cccnc1N2C1CC1,B-1 (RT L100V K103R/K Y188H),RT-L100V K103R/K Y188H,cytopathic effect,8
Cc1cn([C@H]2C[C@H](N=[N+]=[N-])[C@@H](CO)O2)c(=O)[nH]c1=O,IIIB-Pyridinone(0.1)(RT-V179N,RT-V179N,syncytia,2
Nc1ccn([C@H]2CC[C@@H](CO)O2)c(=O)n1,IIIB TIBO R82913 STR-B22 (RT L100I Y188H),RT-L100I Y188H,syncytia,0.28
Cc1cn([C@@H]2O[C@H](CO[Si](C)(C)C(C)(C)C)C3(OS(=O)(=O)C=C3N)[C@H]2O[Si](C)(C)C(C)(C)C)c(=O)n(C)c1=O,IIIB,RT-V106A,syncytia,10.45
CCOCn1c(Cc2cc(C)cc(C)c2)c(CC)c(=O)[nH]c1=O,IIIB TIBO R82913 STR-2 (RT K103N),RT-K103N,syncytia,10
CC(C)=CCOc1cc(NC(=S)c2ccoc2C)ccc1Cl,IIIB,RT-V179D,syncytia,3.33
Cc1cn([C@H]2C[C@H](N=[N+]=[N-])[C@@H](CO)O2)c(=O)[nH]c1=O,IIIB TIBO R82913 STR-B02 (RT L100I E138K),RT-L100I E138K,syncytia,11.7
Nc1ccn([C@H]2CC[C@@H](CO)O2)c(=O)n1,IIIB-Nevirapine(1.0)(RT-Y181C),RT-Y181C,syncytia,1.56

A second listing of 3 rows from above:

SMILES,strain or isolate,changes,method,result
O=c1[nH]cnc2c1ncn2[C@H]1CC[C@@H](CO)O1,IIIB nevirapine-resistant (RT Y181C),RT-Y181C,syncytia,5
Fc1cccc(F)c1C1OCc2nc3ccccc3n21,Pyridinone-resistant (RT Y181C),RT-Y181C,cytopathic effect / MTT,≥3.64
Nc1nc2c(ncn2[C@H]2CC[C@@H](CO)O2)c(=O)[nH]1,IIIB TSAO-T(RT-E138K),RT-E138K,syncytia,3.5